Series [1] in a line: Temperature dependence of the amidase activity. It counts as biochemical, Pseudonocardia thermophila.
Series [2] in a line: pH dependence of the amidase activity (hydrolysis of benzamide). It is filed as biochemical, Pseudonocardia thermophila.

B1: amidase: thermally stable amidase purified from Pseudonocardia thermophila (DSMZ 43832); SEQ ID No. 1, 2, 3 (protein, listed as Pseudonocardia thermophila)
chain 1: IHMPDPDAV
chain 2: DGLPVGLMIVGKHF
chain 3: MIHMPDPDAVARMAAEGRFGIPVVVICRTYHDLGHRPARLVEQGRRAVRGGGPHPAAALVDPPRRRGRQARRVGGADLDHRNLGGAARRPHGRGQDNVAVAGVPMMNGSRTLEGFVPAEDATVVSRLLAAGATIAGKSVCEDLCFSGGSHTSKPGTVHNPWDMSRSAGGSSSGSGALVAAGEVDMAIGGDQGGSIRIPSAYCGTVGHKPTHGLVPYTGGFPIEQSIDHLGPITRTVADAALMLSVIAGRDGLDPRQPDVVEVQDYVGALAESVSGLRIGVLQEGFGHPNSEPEVDDTVRAAVGTLREAGFTVEDVSVPWHLHATAIWDVLATEGGLWQMVEGNAYGMHWKGHYDPSLIAYYGRKWREDPAQFSETVKLVALAGRYALTTQYGRHYAMARNLAPKLVAAYDAALSNYDVLVMPTLPMRATVLPGPDAPVEEILARGLEMLANTAPFDVTGHPACSVPAGLADGLPVGLMIVGKHFDDATVLKVANAFEQAVGGFPTPAAZ
As for B1, the “T opt. in ° C.” value in series [1] (Table 4, inventive amidase) turned out to be 70 °C. The temperature optimum entry in series [1] (pH 7.2, 30° C. to 90° C., FIG. 3) is “approximately 70 °C”. The pH opt. in series [2] (Table 4, inventive amidase) is recorded as 7.0. In series [2] (benzamide 5 mM, 70° C., FIG. 4), the pH optimum entry was “about 7”.

Source of the values: patent US20070172933A1, “Thermally stable amidases” (priority 2003, published 2007).
